Values from PubChem BioAssay AID1259414 (Drosophila RNAi Screening Center, 2018)

- Test: 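Fly genes that alter Wolbachia amount inside host cells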 (primary screen)
- System: Drosophila JW18 cells infected with Wolbachia
- Reagent: long dsRNA against Drosophila genes, 0.25 µg dsRNA per well of a 384-well plate
- Duration: 5 days
- Treatment: cells persistently infected with Wolbachia before knock-down; no added drug
- Read-out: 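Automated imaging of bacterial rRNA staining divided by host cell count, reported as plate-normalised robust z-score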
- Reading the numbers: Wolbachia per cell robust z: higher = more Wolbachia per host cell than the plate typical
- Active means: 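Active if absolute robust z reaches 1.5 in two or more of three replicates, leaving out multi- or no-target dsRNAs, genes unexpressed in JW18 and A1 wells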
The deposit covers about 24,000 reagents; below is a random part of those with a known target gene and a result. In the full data, about 1,210 (5%) are marked active. 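Inactive calls also include excluded dsRNAs with several or no targets, genes unexpressed in JW18, and well A1, regardless of score.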 The numbers tell different reagents against one gene apart. Names joined by + are all predicted targets of the reagent.

| target gene | reagent | Wolbachia per cell robust z, rep 1 | Wolbachia per cell robust z, rep 2 | Wolbachia per cell robust z, rep 3 | call |
| --- | --- | --- | --- | --- | --- |
| tok | 1 | 0.158 | -0.239 | -0.598 | inactive |
| tok | 2 | 0.416 | -0.931 | 0.129 | inactive |
| CG8562 | 1 | -3.52 | -0.28 | -4.01 | inactive |
| CG8562 | 2 | 0.11 | -1.23 | -1.93 | inactive |
| Ptp4E | 1 | -3.2 | 0.321 | 0.153 | inactive |
| Bhmt | 1 | -1.77 | -4.88 | -0.744 | active |
| Bhmt | 2 | -0.34 | -0.165 | -0.493 | inactive |
| CG9368 | 1 | 0.323 | 0.687 | 0.62 | inactive |
| CG9368 | 2 | -0.291 | -1.39 | -1.04 | inactive |
| S-Lap5 | 1 | -2.46 | -0.306 | 0.89 | inactive |
| S-Lap5 | 2 | -0.698 | 0.389 | -0.00392 | inactive |

Continued, starting with the last 2 of the part before.
| target gene | reagent | Wolbachia per cell robust z, rep 1 | Wolbachia per cell robust z, rep 2 | Wolbachia per cell robust z, rep 3 | call |
| --- | --- | --- | --- | --- | --- |
| S-Lap5 | 1 | -2.46 | -0.306 | 0.89 | inactive |
| S-Lap5 | 2 | -0.698 | 0.389 | -0.00392 | inactive |
| CG15803 | 1 | -0.0149 | -5.19 | 0.453 | inactive |
| CG9674 | 1 | -2.15 | -0.258 | -1.95 | active |
| CG9674 | 2 | 0.124 | -0.693 | 0.53 | inactive |
| CG31735 | 1 | 1.11 | 0.382 | -0.163 | inactive |
| CG31735 | 2 | -0.435 | -0.435 | -0.0114 | inactive |
| pros | 1 | -1.04 | -0.219 | -3.12 | inactive |
| pros | 2 | 0.0503 | 0.218 | -0.00667 | inactive |
| pros | 3 | 1.62 | 0.00125 | 0.728 | inactive |
| Pstk + Tim9b | 1 | -4.46 | -11.5 | -1.56 | inactive |
| su(f) | 1 | 1.13 | -2.54 | 0.316 | inactive |
| su(f) | 2 | -0.0837 | -0.209 | 0.304 | inactive |
| Best2 | 1 | 0.871 | 0.463 | -4.11 | inactive |
| CG32409 | 1 | 0.348 | -0.347 | -2.07 | inactive |
| CG32409 | 2 | -1.01 | -0.423 | 0.365 | inactive |
| Yif1 | 1 | 0.0962 | 0.474 | 0.214 | inactive |
| CG8149 | 1 | 0.459 | -0.73 | -2.3 | inactive |
| Mesh1 | 1 | -0.213 | -0.291 | -0.807 | inactive |
